Construct, isoform or probe ends are uncertain for at least one entry. At least one verdict was read from the data and is not stated in words by the source.
Biological target: SdiA (His-SdiA) (UniProt A6TB66)
Test: EMSA
Conditions: 10 pmol SdiA, 2 or 4 uM C8-HSL (no apparent effect); 10 mM Tris-HCl pH 8.0, 50 mM KCl, 1 mM DTT, 0.1 mM EDTA, 2.5 mM MgCl2, 2% glycerol, 40 uL, 50 ng DNA, 37 C 30 min; 2% agarose or 6% native polyacrylamide gel; recombinant protein; residues 1-228; probe letters rebuilt from the primers and the genome

Sequence: CTTCCATTCGGGTATGGTCGACTGTGAAACTATCTAACAACGGCATTCGTCACCTCCGGGAGTGAATTTTTTTAAAATAAAATGAACTCTTTGTTCAGCCGCGAGTCTCAGTATATGAAAGACGCGCATTTATTATCATCATCATCCCTGAATCAGAGATGAAAGTTTGGCCACAGTGATGTGGCCTTTTTCTTTTCCAGCGCTACGCGTGCCGCGCCAGCAGCGCCTCAAACGGCTCGCTGTCTTCAGCTTCCACTTTCTTCTGTCGCGCCACCGACGCGTCGCGCTCGGCGATAAAATCGTCTTCGCTCAGGATCTCCAGCGGCTCTT (double strand) [luxS promoter]
- binding result: binds

Sequence: GAAAACTGTGCAGAGCCGGCAGCCGGACCACTCGGCTGAAATCTGAAATGCCTGGAAGGCACAACGGCTGCCAATCCGGTTCGTTATTTCGACATCGTTCAAAGGAAAACAGTATGAAAATCAAAACACTGGCAATGATTGTTGTGTCAGCCCTGTCACTGAGCTCCACGGCAGCTCTGGCCGATACCACCACGGTCAAC (double strand) [fimA promoter]
- binding result: binds

Sequence: TCAGCGCTAAGTTGACTGAATGCCGCTTCCACCAGCGAACGGCGGGTTTTTTCTTTTTGTTGTGCTCTTACGCCCATCACGATGTATGAATCCTTCCAATAGCCCTGCTGGCACTATACCAGAGATTAAAACTAATCGGTTTGCCCTGGATTGTGAATGATTGTTTACGAGCCGTTTCTGCTTTTATGCTGCAAAAAAGCACAACGATAATTGGGTTAAAGCGCAGCGAATGTTATCATCGTGTTTATTTTATGTATAAAACAGGTGAGTAATGCCATGTCACACTCTTGGGATTA (double strand) [ftsQ promoter]
- binding result: binds

Source: article PMC8255378
